# Primary screen of a compound library

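Growth of Mycobacterium tuberculosis over 4 days (cholesterol / DPPC medium with tyloxapol); the read-out is not stated. Tested at 500 µM. Higher reads as more growth inhibition (inferred: compounds with an IC50 in retests scored well above the rest). About 18,000 compounds were tested under these conditions; 5% (about 900) showed 50% or more at least once.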

The filed quantity is “Percent Effect” (%). The controls that fix the scale are not given in the record; negative values are as filed. The entries come from a sample that favours strong results.

Compound | effect
CC(C)(CNC(=O)CC1=CCCCC1)S(C)(=O)=O | -0.25
NC(=O)C1(NCCSCc2ccccc2)CC1 | -18.09
OCCNc1nc2ccccc2s1 | -7.277
CN(C)Cc1ccc(-c2nc(C3CCOC3)no2)o1 (configuration not stated) | 3.076
Cc1ccc(-c2noc(C(C)N)n2)cc1F (configuration not stated) | 71.68
CCNC(=O)C1CCCN1C(=O)Nc1ccccc1 (configuration not stated) | -5.795
Cc1n[nH]c(C)c1C(N)C(=O)NCCc1ccnn1C (configuration not stated) | -5.348
O=c1ccc2ccccc2n1CCCn1cnnn1 | 27.02
CS(=O)(=O)NCCNCc1cccc(-n2cccn2)c1 | 11.03
COCc1nc(C)c(CNC(=O)c2cccc(C)n2)s1 | 10.86
CSCCC(NC(N)=O)C(=O)Nc1cccc(F)c1 (configuration not stated) | -4.457
CSC(C)C(=O)NCc1ccccn1 (configuration not stated) | -18.74
CC(Sc1nnc(-c2ccccc2F)n1C)C(N)=O (configuration not stated) | -1.039
N#CC(CO)Cc1ccco1 (configuration not stated) | 5.884
CS(=O)(=O)CCSCc1ccn(-c2ccc(F)cc2)n1 | -11.22
CN(C)Cc1ccc(C(=O)NCC2(C)COC2)cc1 | 10.33
Cn1cc(C(=O)Nc2ccc(F)cc2)ccc1=O | -4.699
COc1cccc(NC(=O)CN2CCC(O)CC2)c1 | 6.765
Cc1ccc(CCN)cc1 | 10.49
CC(CO)(NC(=O)c1c(O)cccc1F)C1CC1 (configuration not stated) | -16.27
Nc1nnc(SCC(=O)NCCOc2ccccc2)s1 | -6.734
C[C@@H](N)C(=O)N1CCCC1Cc1cccc(F)c1 (some centres not stated) | 17.12
Cc1ccccc1C(=O)NCCCN1CCCC1 | 0.4911
COc1cc(C(=O)CCN(C)C)cc(OC)c1OC | 111
CCC(=O)c1cccc(OC)n1 | -2.695
COCCNCc1scnc1C | 0.4757
O=C(NCCn1cccc1)c1[nH]nc2c1CCCC2 | 53.15
c1cc2c(cc1-c1nc3c([nH]1)CCNC3)OCO2 | -0.2435
OCCOc1ccc(CNC2CC2)cc1 | 7.932
CC(CO)NS(=O)(=O)c1cc(N(C)C)ccc1Br (configuration not stated) | 22.08
COC(=O)C(C)(C)NC(=O)Cc1ccc(F)cc1 | 6.496
CC(c1ccccn1)N(C)C(=O)c1nccnc1N (configuration not stated) | 8.654
CS(=O)(=O)c1ccccc1C(=O)Nc1ccccc1 | -3.848
COc1ccc(N2C(=O)C=CC2=O)cc1OC | -21.88
Cc1ccc(OC(C)C(=O)NCCCC(N)=O)cc1 (configuration not stated) | 11.4
CCCC(=O)N1C[C@@H](CO)[C@H](N(C)C)C1 | -12.25
Cc1cc(C(=O)Nc2ccc3c(c2)CCN3)n(C)n1 | -3.6
COc1ccc(CCC(=O)N(C)CC(N)=O)cc1Br | 17.25
COC(=O)CC1CNc2ccccc21 (configuration not stated) | 11.26
CC(CN)S(C)(=O)=O (configuration not stated) | -0.4253
CCNC(=O)c1cc(N2CCC(COC)CC2)ccn1 | 39.22
Cn1c(C2CC2)nc2cc(CN)ccc21 | -4.52
CN(Cc1ccccc1)C(=O)CN | 11.05
CS(=O)(=O)N1CCC(NCCSc2cnn[nH]2)CC1 | 61.06
CCNC(=O)c1cc(N2CCC(O)CC2)ccn1 | 14.16
CN1CCN(S(C)(=O)=O)Cc2ccccc21 | -13.07
CCOC(=O)C1CCN(C(=O)c2nccnc2N)CC1 | 7.321
CN(C)C(CN)C1CC1 (configuration not stated) | -2.638
COc1ccccc1OCC(C)NS(C)(=O)=O (configuration not stated) | 8.122
NC(=O)c1c[nH]cn1 | -9.752

Repeated from the top, 3 entries:

| Compound | effect |
|---|---|
| `CC(C)(CNC(=O)CC1=CCCCC1)S(C)(=O)=O` | -0.25 |
| `NC(=O)C1(NCCSCc2ccccc2)CC1` | -18.09 |
| `OCCNc1nc2ccccc2s1` | -7.277 |

Measurements from “University of Dundee, Small-Polar-MMV Screening Library” (2021), ChEMBL document CHEMBL3988442.